Source: paper PMC7038234, “Screening of Natural Extracts for Inhibitors against Japanese Encephalitis Virus Infection” (Antimicrobial Agents and Chemotherapy, 2020)

Test system: JEV strain AT31
Details: Primary screening of 1034 compounds in the natural extracts library

SMILES | Inhibition (%)
COc1ccc(CCO[C@@H]2O[C@H](CO[C@@H]3OC[C@H](O)[C@H](O)[C@H]3O)[C@@H](OC(=O)/C=C/c3ccc(O)c(OC)c3)[C@H](O[C@@H]3O[C@@H](C)[C@H](O)[C@@H](O)[C@H]3O)[C@H]2O)cc1O [Angoroside C] | 6.999
COc1ccc(C=O)cc1 [Anisic aldehyde] | 10.0208
COc1cc(C[C@H](C)[C@H](C)Cc2ccc3c(c2)OCO3)ccc1O [Anwuligan] | -89.2323
O=C(O)[C@H]1O[C@@H](Oc2cc(O)c3c(=O)cc(-c4ccc(O)cc4)oc3c2)[C@H](O)[C@@H](O)[C@@H]1O [Apigenin-7-O-glucuronide] | 5.863
COc1cccc2c1cc([N+](=O)[O-])c1c(C(=O)O)cc3c(c12)OCO3 [Aristolochic Acid A] | 8.4053
COc1cccc2c1cc1c3c(cc4c(c32)OCO4)C(=O)N1 [Aristololactam] | 5.952
C[C@@H]1CCCC2=CC(=O)[C@@H]3[C@@H](C3(C)C)[C@]21C [Aristolone] | -1.243
COc1cc(OC)c(OC)cc1C=O [Asarylaldehyde] | 22.225
CC(=O)O[C@H]1[C@H](O[C@H]2CC[C@]34C[C@]35CC[C@]3(C)[C@@H]([C@@]6(C)CC[C@@H](C(C)(C)O)O6)[C@@H](O)C[C@@]3(C)[C@@H]5C[C@H](O[C@@H]3O[C@H](CO)[C@@H](O)[C@H](O)[C@H]3O)[C@H]4C2(C)C)OC[C@@H](O)[C@@H]1O [Astragaloside II] | -1.503
CC(C)(O)[C@@H]1CC[C@](C)([C@H]2[C@@H](O)C[C@@]3(C)[C@@H]4C[C@H](O[C@@H]5O[C@H](CO)[C@@H](O)[C@H](O)[C@H]5O)[C@H]5C(C)(C)[C@@H](O[C@@H]6OC[C@@H](O)[C@H](O)[C@H]6O[C@@H]6O[C@H](CO)[C@@H](O)[C@H](O)[C@H]6O)CC[C@@]56C[C@@]46CC[C@]23C)O1 [Astragaloside VI] | 34.1929
CC(C)=CCc1c(O)cc(O)c2c(=O)c(O[C@@H]3O[C@@H](C)[C@H](O)[C@@H](O)[C@H]3O)c(-c3ccc(O)cc3)oc12 [Baohuoside II] | -20.9028
CCN1C[C@]2(COC)[C@H](O)C[C@H](OC)[C@@]34[C@@H]5C[C@@]6(O)[C@H](OC(=O)c7ccccc7)[C@@H]5[C@@](O)([C@@H]([C@H](OC)[C@H]23)[C@@H]14)[C@@H](O)[C@@H]6OC [Benzoylaconine] | 19.17
COC[C@@]12CC[C@H](OC)[C@]34C([C@H]([C@H](OC)[C@H]13)[C@]1(O)[C@H]3[C@@H](OC(=O)c5ccccc5)[C@](O)(C[C@H]34)[C@@H](OC)[C@@H]1O)N(C)C2 [Benzoylhypacoitine] | 27.5083
COC[C@]12CN(C)C3[C@@H]4[C@H](OC)[C@H]1[C@@]3([C@@H](OC)C[C@H]2O)[C@@H]1C[C@@]2(O)[C@H](OC(=O)c3ccccc3)[C@@H]1[C@]4(O)[C@@H](O)[C@@H]2OC [Benzoylmesaconine] | -3.649
COc1cc2c3cc1Oc1c(OC)c(OC)cc4c1[C@@H](Cc1ccc(O)c(c1)Oc1ccc(cc1)C[C@@H]3N(C)CC2)N(C)CC4 [Berbamine dihydrochloride] | 68.0635
COc1ccc2cc3[n+](cc2c1OC)CCc1cc2c(cc1-3)OCO2 [Berberine Sulfate] | 32.8454
C[N+](C)(C)CC(=O)O [Betaine hydrochloride] | 51.0034
C[N+](C)(C)CC(=O)O [Betaine] | 17.9596
COc1ccc(-c2coc3cc(O)cc(O)c3c2=O)cc1 [Biochanin A] | 62.9444
CC(=O)OC[C@@]12CC[C@@H](C)[C@](C)(CCC3=CC(=O)OC3)[C@H]1C[C@H](O)C=C2CO [Blinin] | 12.5663
CC1(C)C2CCC1(C)C(OC1O[C@H](CO)[C@@H](O)[C@H](O)[C@H]1O)C2 (some centres unmarked) [Borneol-2-O-glucopyranoside] | -3.113

SMILES | Inhibition (%)
C[C@H]1O[C@@H](O[C@H]2CC[C@@]3(C)[C@@H](CC[C@]4(C)[C@@H]3C=CC3=C5CC(C)(C)CC[C@]5(CO)[C@@H](O)C[C@]34C)[C@]2(C)CO)[C@H](O[C@@H]2O[C@H](CO)[C@@H](O)[C@H](O)[C@H]2O)[C@@H](O[C@@H]2O[C@H](CO)[C@@H](O)[C@H](O)[C@H]2O)[C@H]1O [Buddlejasaponin IVb] | -23.5828
COc1ccc(-c2cc(=O)c3c(O)cc(O[C@@H]4O[C@H](CO[C@@H]5O[C@@H](C)[C@H](O)[C@@H](O)[C@H]5O)[C@@H](O)[C@H](O)[C@H]4O)cc3o2)cc1 [Buddleoside] | 3.512
CC(=O)O[C@H]1C[C@]2(O)[C@@H]3CC[C@@H]4C[C@@H](O)CC[C@]4(C)[C@H]3CC[C@]2(C)[C@H]1c1ccc(=O)oc1 [Bufotaline] | 32.4793
C=C1C2CCC3(C4C[C@H]5C6(CCC[C@@]5(C)CN(CC)C46)[C@H]3[C@H]2O)[C@@H]1O [Bullatine A] | 7.2916
O=C(O)CCC(=O)O [Butanediacid] | 0.1245
COc1ccc(-c2coc3cc(O[C@@H]4O[C@H](CO)[C@@H](O)[C@H](O)[C@H]4O)ccc3c2=O)cc1O [Calycosin-7-glucoside] | 4.742
C=C1[C@@H]2CC[C@H]3[C@]4(C)C[C@H](O[C@@H]5O[C@H](CO)[C@@H](OS(=O)(=O)O)[C@H](OS(=O)(=O)O)[C@H]5OC(=O)CC(C)C)CC(C(=O)O)(C(=O)O)[C@H]4CC[C@]3(C2)[C@H]1O [Carboxyatractyloside] | -15.3295
CC[C@H]1CN2CCc3cc(OC)c(OC)cc3[C@@H]2C[C@@H]1C[C@H]1NCCc2cc(O)c(OC)cc21.Cl [Cephaeline hydrochloride] | 11.3914
CC(=O)OC/C=C/c1ccccc1 [Cinnamyl acetate] | -9.255
C[C@@]12C[C@@H](c3ccoc3)OC(=O)[C@@H]1CC[C@]1(C)[C@H]2[C@@H]2C=C[C@@]1(O)C(=O)O2 [Columbin] | -4.436
[Cl-].c1c2c(cc3c1OCO3)-c1cc3ccc4c(c3c[n+]1CC2)OCO4 [Coptisine hydrochloride] | -12.6803
C=C1C(=O)O[C@@H]2/C=C(\C)CC/C=C(\C)CC[C@@H]12 [Costundide] | 91.7561
Nc1nc(=O)[nH]c2c1ncn2[C@@H]1O[C@H](CO)[C@@H](O)[C@H]1O [Crotonoside] | -2.093
CC(C)(O)[C@@H]1CC[C@](C)([C@H]2[C@@H](O)C[C@@]3(C)[C@@H]4C[C@H](O)[C@H]5C(C)(C)[C@@H](O)CC[C@@]56C[C@@]46CC[C@]23C)O1 [Cycloastragenol] | 38.012
CN[C@@H](C)[C@H]1[C@H](O)C[C@@]2(C)[C@@H]3CC[C@H]4C(C)(C)[C@@H](NC)CC[C@@]45C[C@@]35CC[C@]12C [Cyclovirobuxin D] | 4.225
O=C(/C=C/c1ccc(O)c(O)c1)O[C@@H]1C[C@@](OC(=O)/C=C/c2ccc(O)c(O)c2)(C(=O)O)C[C@@H](O)[C@@H]1O [Cynarin;Cynarine] | 13.5513
OC[C@H]1OC(O)[C@H](O)[C@@H](O)[C@@H]1O (stereo partly drawn) [D(+)-Glucose] | 18.4575
O=C(O)C(O)C(O)C(=O)O (stereo not drawn) [D(-)-Tartaric acid] | -8.496
OC[C@@H](O)[C@@H](O)[C@H](O)[C@H](O)CO [D-Mannitol] | 54.8211
COc1ccc2cc3[n+](cc2c1OC)CCc1cc(O)c(O)cc1-3 [DeMethyleneberberine] | 11.2398

Counter-ions that a name gives are not always drawn.
